{"source": "paper PMC12232725", "molecular_target": "N protein (unphosphorylated, lambda-phosphatase treated) (SARS-CoV-2 (isolate Wuhan-Hu-1)) (UniProt P0DTC9)", "experiment": "competition (BLI)", "details": "recombinant protein; residues 1-419; protein details: His6-MBP tag cleaved (3C), linker remnant possible", "note": "The exact form of at least one protein or probe is not confirmed. At least one verdict was read from the data and is not stated in words by the source.", "data": [{"sequence": "TACAGATCTACTAGTGATCTATGACTGATCTGTACATGATCTACA (double strand) [45-bp DNA (ISD)]", "values": [{"measurement": "binding result", "value": "binds"}]}]}
